Data reported in patent US9896482B2, “Beta hairpin peptides having antiviral properties against Dengue virus” (CENTRO DE INGENIERÍA GENÉTICA Y BIOTECNOLOGÍA, priority 2014, dated 2018).
Where a SMILES comes first, the peptide text is derived from it. Bridges are numbered along the chain shown (N, C = ends). [ ]: non-standard residue; d: D form.

What follows are compounds tested on DENV serotype 2 (NIBSC code S16803) (assay: Plaque reduction assay in Vero cells, DENV2). Settings: DENV2, ratio CC50 / IC50.
Assay type: cell-based, Dengue virus
Protocol: The cells were grown in 24 well plates until the monolayer reached approximately 90% confluence, after which they were washed twice with MEM medium without Fetal Bovine Serum (FBS). Then, peptide dilutions were added and the cell-peptide mixtures were incubated typically for 1 hour at 37° C., followed by the addition of a DENV serotype 2 preparation (NIBSC code S16803) at a multiplicity of infection (m.o.i.) of 0.001. The cells were then incubated for 1 hour at 37° C., and once the period of incubation with the viral inoculum concluded, were washed again to remove unbound virions and incubated for 5 days at 37° C. in high density medium (MEM supplemented with non-essential amino acids, 1% FBS, 1% carboxymethylcellulose) in order to let viral plaques form. Afterwards, the cells were stained with 0.1% Naphtol Blue Black in 0.15 M sodium acetate. Two replicates per experimental point were used in each assay, and three independent determinations were performed for each sample.
Next, it was decided to compare the antiviral activity of peptides PHB4 and HDIII3CL against all four DENV serotypes, with the objective of comparing their respective IC50 values. This comparison was performed with plaque reduction assays on Vero cells, adding the viral inoculum for each serotype (DENV1, NIBSC code West Pac 74, DENV2, NIBSC, code S16803; DENV3, NIBSC, code CH53489; DENV 4, NIBSC code TVP360) at a m.o.i. of 0.001.

| SMILES | SI (selectivity index) |
| --- | --- |
| CC(C)[C@H](NC(=O)[C@H](CC(N)=O)NC(=O)[C@H](Cc1c[nH]c2ccccc12)NC(=O)[C@@H](NC(=O)[C@H](Cc1c[nH]c2ccccc12)NC(=O)[C@H](CCCCN)NC(=O)[C@H](CC(N)=O)NC(=O)[C@@H](CCCCN)NC(=O)[C@H](CCC(=O)O)NC(=O)[C@H](Cc1c[nH]c2ccccc12)NC(=O)[C@H](CCCCN)NC(=O)[C@H](Cc1c[nH]c2ccccc12)NC(=O)[C@H](CC(N)=O)NC(=O)[C@H](Cc1c[nH]c2ccccc12)NC(=O)[C@@H](N)Cc1ccccc1)[C@@H](C)O)C(=O)N[C@@H](CCC(=O)O)C(=O)NCC(=O)NCC(=O)N[C@@H](CCCCN)C(=O)N[C@@H](CCCCN)C(=O)N[C@@H](CCCCN)C(N)=O [PHB5] (H-FWNWKWE[dK]NKWTWNVEGGKKK-NH2) | 15 |
| CC(C)[C@H](NC(=O)[C@H](CC(N)=O)NC(=O)[C@H](Cc1c[nH]c2ccccc12)NC(=O)[C@@H](NC(=O)[C@H](Cc1c[nH]c2ccccc12)NC(=O)[C@H](CCCCN)NC(=O)[C@H](CC(N)=O)NC(=O)[C@H]1CCCN1C(=O)[C@H](CCC(=O)O)NC(=O)[C@H](Cc1c[nH]c2ccccc12)NC(=O)[C@H](CCCCN)NC(=O)[C@H](Cc1c[nH]c2ccccc12)NC(=O)[C@H](CC(N)=O)NC(=O)[C@H](Cc1c[nH]c2ccccc12)NC(=O)[C@@H](N)Cc1ccccc1)[C@@H](C)O)C(=O)N[C@@H](CCC(=O)O)C(=O)NCC(=O)NCC(=O)N[C@@H](CCCCN)C(=O)N[C@@H](CCCCN)C(=O)N[C@@H](CCCCN)C(N)=O [PHB6] (H-FWNWKWE[dP]NKWTWNVEGGKKK-NH2) | 12 |
| CC(C)[C@@H]1NC(=O)[C@H](CCCCN)NC(=O)[C@H](Cc2c[nH]c3ccccc23)NC(=O)[C@H](CCCCN)NC(=O)[C@H]2CCCN2C(=O)[C@H](CCCNC(=N)N)NC(=O)[C@H]([C@@H](C)O)NC(=O)[C@H](Cc2c[nH]c3ccccc23)NC(=O)[C@H](Cc2ccc(O)cc2)NC(=O)[C@H](C(C)C)NC(=O)[C@@H](N)CSSC[C@@H](C(=O)N[C@@H](CCCCN)C(=O)N[C@@H](CCCCN)C(=O)N[C@@H](CCCCN)C(N)=O)NC(=O)[C@H](Cc2c[nH]c3ccccc23)NC(=O)[C@H](CC(N)=O)NC1=O [PHB2] (H-CVYWTR[dP]KWKVNWCKKK-NH2; disulfide 1-14) | 7 |
| CC[C@H](C)[C@@H]1NC(=O)[C@H](Cc2ccccc2)NC(=O)[C@H](Cc2c[nH]c3ccccc23)NC(=O)[C@H](CC(N)=O)NC(=O)[C@H](C(C)C)NC(=O)[C@H](CCCCN)NC(=O)[C@H](CCCCN)NC(=O)[C@H](CC(=O)O)NC(=O)[C@H]2CCCN2C(=O)[C@H](CCC(=O)O)NC(=O)[C@H]([C@@H](C)O)NC(=O)[C@H](Cc2c[nH]c3ccccc23)NC(=O)[C@H](CC(N)=O)NC(=O)[C@H](C(C)C)NC(=O)[C@H](CCC(=O)O)NC(=O)[C@H]([C@@H](C)CC)NC(=O)[C@@H](N)CSSC[C@@H](C(=O)N[C@@H](CCCCN)C(=O)N[C@@H](CCCCN)C(=O)N[C@@H](CCCCN)C(N)=O)NC1=O [PHB3] (H-CIEVNWTE[dP]DKKVNWFICKKK-NH2; disulfide 1-18) | >>59 |
| CC[C@H](C)[C@@H]1NC(=O)CNC(=O)[C@H]([C@@H](C)CC)NC(=O)[C@H](C(C)C)NC(=O)[C@H]([C@@H](C)CC)NC(=O)[C@H](CC(N)=O)NC(=O)[C@H](CO)NC(=O)[C@@H](N)CSSC[C@@H](C(=O)N[C@@H](CCCCN)C(=O)N[C@@H](CCCCN)C(=O)N[C@@H](CCCCN)C(N)=O)NC(=O)[C@H](Cc2c[nH]c3ccccc23)NC(=O)[C@H](CC(N)=O)NC(=O)[C@H]([C@@H](C)CC)NC(=O)[C@H](CCCCN)NC(=O)[C@H](CC(C)C)NC(=O)[C@H](C)NC(=O)[C@H](CCCCN)NC(=O)[C@H](CC(=O)O)NC(=O)CNC1=O [HDIII3CL2, reference compound] (H-CSNIVIGIGDKALKINWCKKK-NH2; disulfide 1-18) | 50 |
| CC[C@H](C)[C@@H]1NC(=O)[C@H](Cc2ccccc2)NC(=O)[C@H](Cc2c[nH]c3ccccc23)NC(=O)[C@H](CC(N)=O)NC(=O)[C@H](Cc2ccc(O)cc2)NC(=O)[C@H](CCCCN)NC(=O)[C@H](CCCCN)NC(=O)CNC(=O)[C@H](CC(N)=O)NC(=O)[C@H]([C@@H](C)CC)NC(=O)[C@H]([C@@H](C)O)NC(=O)[C@H](C(C)C)NC(=O)[C@H](CC(N)=O)NC(=O)[C@H](C(C)C)NC(=O)[C@H](CCC(=O)O)NC(=O)[C@H]([C@@H](C)CC)NC(=O)[C@@H](N)CSSC[C@@H](C(=O)N[C@@H](CCCCN)C(=O)N[C@@H](CCCCN)C(=O)N[C@@H](CCCCN)C(N)=O)NC1=O [PHB8] (H-CIEVNVTINGKKYNWFICKKK-NH2; disulfide 1-18) | 20 |
| CC[C@H](C)[C@@H]1NC(=O)[C@H](Cc2ccccc2)NC(=O)[C@H](Cc2c[nH]c3ccccc23)NC(=O)[C@H](CC(N)=O)NC(=O)[C@H](Cc2ccc(O)cc2)NC(=O)[C@H](CCCCN)NC(=O)[C@H](CCCCN)NC(=O)CNC(=O)[C@H](CC(N)=O)NC(=O)[C@H]([C@@H](C)CC)NC(=O)[C@H]([C@@H](C)O)NC(=O)[C@H](C(C)C)NC(=O)[C@H](Cc2ccc(O)cc2)NC(=O)[C@H](C(C)C)NC(=O)[C@H](CCC(=O)O)NC(=O)[C@H]([C@@H](C)CC)NC(=O)[C@@H](N)CSSC[C@@H](C(=O)N[C@@H](CCCCN)C(=O)N[C@@H](CCCCN)C(=O)N[C@@H](CCCCN)C(N)=O)NC1=O [PHB9] (H-CIEVYVTINGKKYNWFICKKK-NH2; disulfide 1-18) | 31 |
| CC[C@H](C)[C@@H]1NC(=O)[C@H]([C@@H](C)O)NC(=O)[C@H](C(C)C)NC(=O)[C@H](CC(N)=O)NC(=O)[C@H](C(C)C)NC(=O)[C@@H](N)CSSC[C@@H](C(=O)N[C@@H](CCCCN)C(=O)N[C@@H](CCCCN)C(=O)N[C@@H](CCCCN)C(N)=O)NC(=O)[C@H](Cc2c[nH]c3ccccc23)NC(=O)[C@H](CC(N)=O)NC(=O)[C@H](Cc2ccc(O)cc2)NC(=O)[C@H](CCCCN)NC(=O)[C@H](CCCCN)NC(=O)CNC(=O)[C@H](CC(N)=O)NC1=O [PHB7] (H-CVNVTINGKKYNWCKKK-NH2; disulfide 1-14) | 24 |
| CC[C@H](C)[C@@H]1NC(=O)[C@H](Cc2ccccc2)NC(=O)[C@H](Cc2c[nH]c3ccccc23)NC(=O)[C@H](CC(N)=O)NC(=O)[C@H](C(C)C)NC(=O)[C@H](CCCCN)NC(=O)[C@H](Cc2c[nH]c3ccccc23)NC(=O)[C@H](CCCCN)NC(=O)[C@H]2CCCN2C(=O)[C@H](CCCNC(=N)N)NC(=O)[C@H]([C@@H](C)O)NC(=O)[C@H](Cc2c[nH]c3ccccc23)NC(=O)[C@H](Cc2ccc(O)cc2)NC(=O)[C@H](C(C)C)NC(=O)[C@H](CCC(=O)O)NC(=O)[C@H]([C@@H](C)CC)NC(=O)[C@@H](N)CSSC[C@@H](C(=O)N[C@@H](CCCCN)C(=O)N[C@@H](CCCCN)C(=O)N[C@@H](CCCCN)C(N)=O)NC1=O [PHB4] (H-CIEVYWTR[dP]KWKVNWFICKKK-NH2; disulfide 1-18; N-terminus assumed) | 4333 |
| CC[C@H](C)[C@@H]1NC(=O)CNC(=O)[C@H]([C@@H](C)CC)NC(=O)[C@H](C(C)C)NC(=O)[C@H]([C@@H](C)CC)NC(=O)[C@H](CC(N)=O)NC(=O)[C@H](CO)NC(=O)[C@@H](N)CSSC[C@@H](C(=O)N[C@@H](CCCCN)C(=O)N[C@@H](CCCCN)C(N)=O)NC(=O)[C@H](Cc2c[nH]c3ccccc23)NC(=O)[C@H](CC(N)=O)NC(=O)[C@H]([C@@H](C)CC)NC(=O)[C@H](CCCCN)NC(=O)[C@H](CC(C)C)NC(=O)[C@H](C)NC(=O)[C@H](CCCCN)NC(=O)[C@H](CC(=O)O)NC(=O)CNC1=O [HDIII3CL, reference compound] (H-CSNIVIGIGDKALKINWCKK-NH2; disulfide 1-18) | 50 |
| CC(C)[C@@H]1NC(=O)[C@H](CCCCN)NC(=O)[C@H](CCCCN)NC(=O)[C@H](CC(=O)O)NC(=O)[C@H]2CCCN2C(=O)[C@H](CCC(=O)O)NC(=O)[C@H]([C@@H](C)O)NC(=O)[C@H](Cc2c[nH]c3ccccc23)NC(=O)[C@H](CC(N)=O)NC(=O)[C@H](C(C)C)NC(=O)[C@@H](N)CSSC[C@@H](C(=O)N[C@@H](CCCCN)C(=O)N[C@@H](CCCCN)C(=O)N[C@@H](CCCCN)C(N)=O)NC(=O)[C@H](Cc2c[nH]c3ccccc23)NC(=O)[C@H](CC(N)=O)NC1=O [PHB1] (H-CVNWTE[dP]DKKVNWCKKK-NH2; disulfide 1-14) | >>13 |

Same assay, conditions: all four DENV serotypes

| SMILES | Selectivity indexes depending on the specific serotype |
| --- | --- |
| CC[C@H](C)[C@@H]1NC(=O)[C@H](Cc2ccccc2)NC(=O)[C@H](Cc2c[nH]c3ccccc23)NC(=O)[C@H](CC(N)=O)NC(=O)[C@H](C(C)C)NC(=O)[C@H](CCCCN)NC(=O)[C@H](Cc2c[nH]c3ccccc23)NC(=O)[C@H](CCCCN)NC(=O)[C@H]2CCCN2C(=O)[C@H](CCCNC(=N)N)NC(=O)[C@H]([C@@H](C)O)NC(=O)[C@H](Cc2c[nH]c3ccccc23)NC(=O)[C@H](Cc2ccc(O)cc2)NC(=O)[C@H](C(C)C)NC(=O)[C@H](CCC(=O)O)NC(=O)[C@H]([C@@H](C)CC)NC(=O)[C@@H](N)CSSC[C@@H](C(=O)N[C@@H](CCCCN)C(=O)N[C@@H](CCCCN)C(=O)N[C@@H](CCCCN)C(N)=O)NC1=O [PHB4] (H-CIEVYWTR[dP]KWKVNWFICKKK-NH2; disulfide 1-18; N-terminus assumed) | 1290 to 6450 |
